The target in the experiment is SARS-CoV-2 3CL^pro (Severe acute respiratory syndrome coronavirus 2, UniProt P0DTD1). The experiment is classed as biochemical. The following applies: 3CLpro 4 μg/mL, preincubation 37 °C 40 min, substrate 20 μM, PBS pH 7.4.

Regarding ginkgolide C, the IC50 was over 100 µM.

ginkgolide B gave an IC50 of over 100 µM.

As usually defined, the IC50 is the concentration needed to halve the response being measured.

The values are drawn from PMC8061081 (Fitoterapia, 2021).
